{"source": "patent US5565425A", "about": "(Snow Brand Milk Products Co., Ltd, priority 1993, dated 1996)", "key": {"[1]": {"assay": "general procedure: Fmoc solid-phase peptide synthesis; p-hydroxymethylphenoxymethylpolystyrene (HMP) resin; benzhydrylamine resin (Boc examples)", "conditions": "HPLC analysis"}, "[2]": {"assay": "solid-phase peptide synthesis", "conditions": "whole synthesis, HPLC analysis, scale of the general procedure 0.25 mmol"}, "[3]": {"assay": "general procedure: Fmoc solid-phase peptide synthesis; HMP resin", "conditions": "whole synthesis, scale 0.25 mmol"}, "[4]": {"conditions": "whole synthesis, scale of the general procedure 0.25 mmol"}}, "note": "For some assays here: HELM strings list residues between dots; [ac] is acetyl, [am] amide, other brackets name non-standard units.", "data": [{"substance": "PEPTIDE1{C.F.Q.W.Q.R.N.M.R.K.V.R.G.P.P.V.S.C}$PEPTIDE1,PEPTIDE1,1:R3-18:R3$$$V2.0", "values": [{"measurement": "final HPLC purity", "setting": "[1]; oxidative folding step", "value": 93, "unit": "%"}]}, {"substance": "PEPTIDE1{C.R.R.W.Q.W.R.M.K.K.L.G.A.P.S.I.T.C}$PEPTIDE1,PEPTIDE1,1:R3-18:R3$$$V2.0", "values": [{"measurement": "final purity (method not given)", "setting": "[1]; [4]", "value": 94, "unit": "%"}]}, {"substance": "PEPTIDE1{[ac].C.F.Q.W.Q.R.N.M.R.K.V.R.G.P.P.V.S.C.[am]}$PEPTIDE1,PEPTIDE1,2:R3-19:R3$$$V2.0", "values": [{"measurement": "final purity (method not given)", "setting": "[2]", "value": 91, "unit": "%"}]}, {"substance": "PEPTIDE1{[ac].C.R.R.W.Q.W.R.M.K.K.L.G.A.P.S.I.T.C.[am]}$PEPTIDE1,PEPTIDE1,2:R3-19:R3$$$V2.0", "values": [{"measurement": "final purity (method not given)", "setting": "[1]; oxidative folding step", "value": 95, "unit": "%"}]}, {"substance": "[19CysSH, 36CysSH] bovine LF (17-41)", "values": [{"measurement": "final purity (method not given)", "setting": "[1]; [4]", "value": 91, "unit": "%"}]}, {"substance": "[20CysSH, 37CysSH] human LF (20-37)", "values": [{"measurement": "crude mass", "setting": "[3]", "value": 500, "unit": "mg"}, {"measurement": "isolated mass", "setting": "[3]", "value": 340, "unit": "mg"}]}, {"substance": "[20CysSH, 37CysSH]] human LF (18-42)", "values": [{"measurement": "final purity (method not given)", "setting": "[1]; [4]", "value": 94, "unit": "%"}]}]}
